# From publication PMC10573436, “Novel Antiviral Molecules against Ebola Virus Infection” (2023)
# Values joined by “and” are separate entries in the source; they are usually repeats but may differ in a detail not shown here. Equal entries are not always repeated.
# B1: unnamed (protein)
# parent chain 1: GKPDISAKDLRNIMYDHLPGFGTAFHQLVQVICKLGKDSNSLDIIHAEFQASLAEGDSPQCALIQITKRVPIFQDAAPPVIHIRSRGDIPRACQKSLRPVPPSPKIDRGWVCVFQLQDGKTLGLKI
# parent chain 2: MAGDLSAGFFMEELNTYRQKQGVVLKYQELPNSGPPHDRRFTFQVIIDGREFPEGEGRSKKEAKNAAAKLAVEILNKEKKAVSPLLLTTTNSSEGLSMGNYIGLINRIAQKKRLTVNYEQCASGVHGPEGFHYKCKMGQKEYSIGTGSTKQEAKQLAAKLAYLQILSEETSVKSDYLSSGSFATTCESQSNSLVTSTLASESSSEGDFSADTSEINSNSDSLNSSSLLMNGLRNNQRKAKRSLAPRFDLPDMKETKYTVDKRFGM
# Target: partner chain of the complex shown
binder,measurement,value
B1,response,5e+07 and 4.2e+07 and 4.7e+07
